# According to US20220275059A1:
# Biological target: recombinant soluble MERS-CoV S ectodomain (MERS-S^ecto) (MERS-CoV EMC isolate)
# Assay: BLI, Table 1 'Binding kinetics of mAbs/MERS-S^ecto or DPP4/MERS-S^ecto' [A]
substance,measurement,value
soluble human DPP4 (dipeptidyl peptidase 4) ectodomain (from UniProt P27487 39-766) (receptor),Kd,3.42 nM
same,koff,4.86e-05 s⁻¹
same,kon,14200 M⁻¹ s⁻¹
